We go through three compounds from patent publication US9034887B2, “Dihydroorotate dehydrogenase as antifungal drug target and quinazolinone-based inhibitors thereof” (F2G Limited, priority 2008, dated 2015).

Protein sequences, listed by entry. Tags and fused reporters are not part of them. Residues count along the entry.
UniProt Q4X169, 89-531 limits assumed: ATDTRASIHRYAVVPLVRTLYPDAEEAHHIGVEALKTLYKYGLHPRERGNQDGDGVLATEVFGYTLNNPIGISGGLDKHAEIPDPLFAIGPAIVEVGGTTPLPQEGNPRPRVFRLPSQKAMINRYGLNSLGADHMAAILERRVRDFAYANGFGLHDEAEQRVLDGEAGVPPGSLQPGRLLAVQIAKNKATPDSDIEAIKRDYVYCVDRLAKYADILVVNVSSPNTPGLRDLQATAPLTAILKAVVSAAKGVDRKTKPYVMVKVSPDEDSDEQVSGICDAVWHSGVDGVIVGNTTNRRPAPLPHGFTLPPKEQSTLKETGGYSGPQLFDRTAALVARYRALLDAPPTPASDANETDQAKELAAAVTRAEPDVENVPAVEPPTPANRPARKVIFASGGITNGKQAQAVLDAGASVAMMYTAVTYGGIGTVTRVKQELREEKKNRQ
UniProt Q874I4, 57-444 limits assumed: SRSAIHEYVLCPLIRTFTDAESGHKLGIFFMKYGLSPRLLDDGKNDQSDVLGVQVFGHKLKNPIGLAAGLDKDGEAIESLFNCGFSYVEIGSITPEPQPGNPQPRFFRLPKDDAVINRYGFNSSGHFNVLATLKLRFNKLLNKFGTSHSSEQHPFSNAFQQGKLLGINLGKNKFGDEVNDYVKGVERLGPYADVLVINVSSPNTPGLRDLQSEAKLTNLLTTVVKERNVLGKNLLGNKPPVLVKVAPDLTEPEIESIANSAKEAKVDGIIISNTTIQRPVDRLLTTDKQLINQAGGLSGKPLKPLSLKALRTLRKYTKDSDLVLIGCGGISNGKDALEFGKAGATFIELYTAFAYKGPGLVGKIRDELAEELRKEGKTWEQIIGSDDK

Read-outs that look alike come from different tables or passages of the source.

As usually defined, the IC50 is the concentration that inhibits the measured activity by half.

In assay [1] the target is Recombinant A. fumigatus DHODH (Aspergillus fumigatus, UniProt Q4X169). The experiment in a line: DHODH inhibition screen (DCIP reduction, 600 nm), A. fumigatus enzyme.
Assay [2] concerns the target Recombinant DHODH from C. albicans (Candida albicans, UniProt Q874I4). In words: DHODH inhibition screen (DCIP reduction, 600 nm), C. albicans enzyme. The assay is classed as biochemical. The conditions noted are these: read-out: IC50 values for DHODH inhibitors identified from screens, C. albicans, Table 1, 20 minutes incubation.
Where [3] appears, read: read-out: IC50 values for Compound Examples 1 to 15 identified from screens, A. fumigatus, Table 3.

For the compound `COc1ccccc1-n1c(SC(C)C)nc2cc(C)ccc2c1=O` [Compound Example 1, 2-Isopropylsulfanyl-3-(2-methoxy-phenyl)-7-methyl-3H-quinazolin-4-one], the IC50 in assay [1] (setting [3]) came out at 1.46 µM; in assay [2] it was 36.1 µM.
On the same counts, the results for `COc1ccccc1-n1c(SC(C)C)nc2ccc(C)cc2c1=O` [Compound Example 2, 2-Isopropylsulfanyl-3-(2-methoxy-phenyl)-6-methyl-3H-quinazolin-4-one] are 2.83 µM and over 128 µM.
With `COc1ccccc1-n1c(SC(C)C)nc2cccc(C)c2c1=O` [Compound Example 3, 2-Isopropylsulfanyl-3-(2-methoxy-phenyl)-5-methyl-3H-quinazolin-4-one], the IC50 in assay [1] (setting [3]) was 4.52 µM; in assay [1] (read-out: IC50 values for DHODH inhibitors identified from screens, A. fumigatus, Table 1, 24 minutes incubation), 2.14 µM; in assay [2], over 133 µM.
